Measurements published in article PMC11599015, “Dimerization of Rabies Virus Phosphoprotein and Phosphorylation of Its Nucleoprotein Enhance Their Binding Affinity” (2024).

Target: RABV phosphoprotein (P)

For “RABV nucleoprotein (N) same, then treated with CKII”, the “other: share of bound P2 dissociating too slowly to measure” value was “stronger; reference about 5”.
